Source: PubChem BioAssay AID624099 (ICCB-Longwood, 2012)
Shown is a random part of about 21,000 reagents tested. 497 of them (2.4%) count as active. 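Higher z means weaker E2 silencing; only reporter increases were scored, and knock-downs that hurt cell survival may mask genuine repressor factors.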 Reagents against one gene are numbered here.

Test: 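Knock-downs relieving repression by E2 of an HPV18 LCR luciferase reporter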 (primary screen)
System: human C33A cervical carcinoma cells (HPV-negative) stably expressing BPV1 E2 and an HPV18 LCR luciferase reporter
Reagents: siRNA pool against human genes, 40 nM
Time to read-out: 72 h
Measured: 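Per-well luciferase luminescence, z-scored on each plate against the plate mean and SD with control wells left out, then averaged across three replicate plates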
Direction: mean z-score and z-score: higher = stronger reporter signal, weaker E2 silencing
Rule for the call: 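Mean z ≥ 2 together with z ≥ 2 in two or more of the three replicates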

gene | reagent no. | mean z-score | z-score, replicate A | z-score, replicate B | z-score, replicate C | Call
MAD1L1 (mitotic arrest deficient 1 like 1) | 1 | 1.89 | 1.69 | 1.7 | 2.27 | inactive
RNF187 (ring finger protein 187) | 1 | 1.33 | 1.79 | 1.17 | 1.02 | inactive
IPO4 (importin 4) | 1 | -1.04 | -1.39 | -1.55 | -0.19 | inactive
ARL4D (ARF like GTPase 4D) | 1 | 0.16 | 0.16 | -0.01 | 0.32 | inactive
RHBDD1 (rhomboid domain containing 1) | 1 | -1.3 | -1.26 | -1.27 | -1.35 | inactive
OR10K2 (olfactory receptor family 10 subfamily K member 2) | 1 | 0.07 | 0.02 | 0.14 | 0.06 | inactive
AAMP (angio associated migratory cell protein) | 1 | 1.71 | 1.43 | 1.71 | 1.99 | inactive
CCL11 (C-C motif chemokine ligand 11) | 1 | 0.32 | 0.25 | 0.42 | 0.31 | inactive
IKZF1 (IKAROS family zinc finger 1) | 1 | 0.13 | 0.29 | -0.24 | 0.33 | inactive
IKZF1 (IKAROS family zinc finger 1) | 2 | 0.63 | 1 | 0.45 | 0.43 | inactive
TCFL5 (transcription factor like 5) | 1 | 0.61 | 0.68 | 0.76 | 0.38 | inactive
LRRC14B (leucine rich repeat containing 14B) | 1 | 0.66 | 0.66 | 0.29 | 1.03 | inactive
SLC25A21 | 1 | -0.27 | -0.14 | -0.5 | -0.17 | inactive
DYNLT1 (dynein light chain Tctex-type 1) | 1 | 0.83 | 1.03 | 0.79 | 0.66 | inactive
WDR5B (WD repeat domain 5B) | 1 | -0.44 | -0.3 | -0.43 | -0.6 | inactive
LOC392993 (retired record) | 1 | 0.11 | 0.4 | -0.06 | 0 | inactive
C4BPB (complement component 4 binding protein beta) | 1 | -1.39 | -1.29 | -1.2 | -1.69 | inactive
R3HDM1 (R3H domain containing 1) | 1 | 0.47 | 0.35 | 0.3 | 0.77 | inactive
DMAC2L (distal membrane arm assembly component 2 like) | 1 | 0.59 | 0.55 | 0.83 | 0.37 | inactive
SKIDA1 (SKI/DACH domain containing 1) | 1 | 0.38 | 0.07 | 0.68 | 0.38 | inactive
POU2F2 (POU class 2 homeobox 2) | 1 | -0.36 | -0.31 | -0.41 | -0.37 | inactive
LANCL1 (LanC like glutathione S-transferase 1) | 1 | 1.18 | 1.17 | 1.15 | 1.23 | inactive
BMERB1 (bMERB domain containing 1) | 1 | 0.19 | 0.14 | 0.11 | 0.32 | inactive

Reformatted: 3 of the entries above
DYNLT1 (dynein light chain Tctex-type 1) — mean z-score = 0.83; z-score, replicate A = 1.03; z-score, replicate B = 0.79; z-score, replicate C = 0.66; Call = inactive
WDR5B (WD repeat domain 5B) — mean z-score = -0.44; z-score, replicate A = -0.3; z-score, replicate B = -0.43; z-score, replicate C = -0.6; Call = inactive
LOC392993 (retired record) — mean z-score = 0.11; z-score, replicate A = 0.4; z-score, replicate B = -0.06; z-score, replicate C = 0; Call = inactive
